Assay [1] has as its system Staphylococcus aureus. Briefly: Antibacterial activity against Staphylococcus aureus ATCC 29213 infected ICR mouse thigh infection model assessed as reduction in bacterial colony forming units administered at 10 mg/kg, po at 2 hrs post-infection and measured at 24 hrs post-infection. The conditions noted are these: time 22.0 hrs.
Assay [2] deals with Staphylococcus aureus. Briefly: Antibacterial activity against Staphylococcus aureus ATCC 29213 infected ICR mouse thigh infection model assessed as reduction in bacterial colony forming units administered iv at 2 hrs post-infection and measured at 24 hrs post-infection. The conditions noted are these: time 22.0 hrs.

Active and inactive are the calls of the source. The rule behind the calls is not given here.

Consider `CC(=O)OP(=O)(O)N(C[C@H]1CN(c2cc(F)c(N3C=CC(=O)CC3)c(F)c2F)C(=O)O1)c1ccon1`, for which the outcome with Staphylococcus aureus [1] was Active. Moreover, the Activity entry with Staphylococcus aureus [2] is “Dde”.

Source of the values: ChEMBL document CHEMBL5120941 (ACS Med Chem Lett, 2022).
